Results of unrelated studies side by side (data: NIAID ChemDB).

Shared fields: enzyme or target tests; species: Hepatitis C virus; protein: NS5B polymerase; read-out: IC50

Blank or dashed fields: not listed here. ICn: concentration for n% inhibition. Conditions beyond the fields shown may differ between rows. Two numbers with a dash give a range or band.

smiles | method | strain or isolate | result
C[C@@H](NC(=O)c1ccc2c(c1)nc(-c1ccoc1)n2C1CCCCC1)C(=O)Nc1cccc(-c2ccc(C(=O)O)o2)c1 |  |  | <0.5 µM
CNC(=O)c1c(-c2ccc(F)cc2)oc2cc(N(CCO)S(C)(=O)=O)c(C3CC3)cc12 |  | 1b | 0.018 µM
O=C(NC(Cc1c[nH]c2ccc(O)cc12)C(=O)O)c1ccc2c(c1)nc(-c1ccoc1)n2C1CCCCC1 |  |  | 0.25 µM
C[C@@H](NC(=O)c1ccc2c(n1)nc(-c1ccoc1)n2C1CCCCC1)C(=O)Nc1ccc(/C=C/C(=O)O)cc1 |  |  | <0.5 µM
CO[C@@H]1[C@H](O)[C@@H](COP(=O)(O)OP(=O)(O)OP(=O)(O)O)O[C@H]1n1ccc(N)nc1=O |  |  | 3.8 µM
CCSc1nc(Nc2ccc(N(CC)CC)cc2)cc(N2CCN(C(=O)c3ccnc(C)c3)CC2)n1 |  |  | 3 µg/mL
CN(C(=O)Cn1nc(C(=O)Nc2ccccc2-c2ccccc2)cc1C(=O)N[C@H]1CCCC[C@@H]1OCc1ccccc1)[C@H]1CCCC[C@@H]1OCc1ccccc1 |  |  | ≥1 µM
O=c1[nH]c(-c2cccs2)nc(P(=O)(O)O)c1O |  |  | >50 µM
CC1(C)CC(=O)C2=C(C1)Nc1ccccc1N(C(=O)c1ccccc1)C2c1ccc([N+](=O)[O-])cc1 |  |  | >32.66 µM
Cc1cc(NS(=O)(=O)c2cc(Cl)c(Cl)cc2Cl)no1 | nucleotide incorporation |  | 100 µM
O=c1c(C2=NS(=O)(=O)c3ccccc3N2)c(O)c2cc(F)ccc2n1CCC1CC1 |  |  | 0.1 µM
CCCCc1ccc(C(=O)O)c(N(C)c2ccc(N3CCNCC3)cc2)n1 |  |  | 3 µg/mL
CC1(C)CC(=O)C2=C(C1)Nc1ccc(C(=O)c3ccccc3)cc1NC2c1cccc(Cl)c1 |  |  | >42.7 µM
COc1cc(C(=O)N2[C@@H](c3nccs3)[C@@H](c3cnccn3)C[C@@]2(Cn2cccn2)C(=O)O)ccc1C(C)(C)C |  | genotype 1b | <0.1 µM
O=C(Cn1nccc1C(=O)N[C@H]1CCCC[C@@H]1OCc1ccccc1)Nc1ccccc1OCc1ccccc1 |  |  | 0.1–1 µM
N#Cc1ccc(Br)cc1COc1cccc(C(=O)CC(=O)C(=O)O)c1 |  |  | 0.1 µM
COc1ccc(C2Nc3cc(C(=O)c4ccccc4)ccc3NC3=C2C(=O)CC(C)(C)C3)cc1OC |  |  | >42.7 µM
COc1ccc(N(Cc2c(Cl)cccc2Cl)S(=O)(=O)c2cccc(C#N)c2)cc1C(=O)O |  | 1b | 0.9 µM
CC(O)(Nc1ccc(Cl)cc1)c1cc(C(=O)N[C@H]2CCCC[C@@H]2OCc2ccccc2)n(CC(=O)N[C@H]2CCCC[C@@H]2OCc2ccccc2)n1 |  |  | ≥1 µM
O=C(O)/C=C/c1ccc(NC(=O)C2(NC(=O)c3ccc4c(c3)nc(-c3ccoc3)n4C3CCCC3)CCCC2)cc1 |  |  | <0.5 µM
COC(=O)c1nc(-c2cccs2)[nH]c(=O)c1O |  |  | >50 µM
O=C(O)c1ccccc1NS(=O)(=O)c1cc(Cl)c(Cl)cc1Cl | nucleotide incorporation |  | 26 µM
O=C1NC(=S)S/C1=C/c1ccc(-c2ccc([N+](=O)[O-])cc2Cl)o1 |  |  | 30 µM
CC1(C)CC(=O)C2=C(C1)Nc1ccc(C(=O)c3ccccc3)cc1NC2c1ccccc1Cl |  |  | >42.7 µM
O=C(O)c1nc(-c2nccn2Cc2ccccc2)[nH]c(=O)c1O |  |  | >50 µM
CCc1nc(N2CCN(C(=O)c3ccccc3)CC2)cc(N(C)c2ccc(N(C)Cc3ccccc3)cc2)n1 |  |  | 3 µg/mL
CC[C@@H](NC(=O)c1ccc2c(c1)nc(-c1ccoc1)n2C1CCCCC1)C(=O)Nc1ccc(/C=C/C(=O)O)cc1 |  |  | <0.5 µM
Cc1ccc(Nn2c(=O)c(C3=NS(=O)(=O)c4ccccc4N3)c(O)c3cccnc32)cc1 |  | genotype 1b | >5 µM
COc1cc(C(=O)N2[C@@H](c3nccs3)[C@@H](c3cnccn3)C[C@@]2(CCS(C)(=O)=O)C(=O)O)ccc1C(C)(C)C |  | Genotype 1A | >1 µM
CC(C)C(=O)c1nc(C(=O)N[C@H]2CCCC[C@@H]2OCc2ccccc2)n(CC(=O)N[C@H]2CCCC[C@@H]2OCc2ccccc2)n1 |  |  | 0.1–1 µM
O=C(O)c1nc(-c2ccccn2)[nH]c(=O)c1O |  |  | >50 µM
COc1cc(C(=O)N2[C@@H](c3nccs3)[C@@H](c3cnccn3)C[C@@]2(Cc2cscn2)C(=O)O)ccc1C(C)(C)C |  | Genotype 1A | <0.15 µM
CCSc1nc(N2CCN(C(=O)c3ccccc3)CC2)cc(N(C)c2ccc(N(C)Cc3ccccc3)cc2)n1 |  |  | 3 µg/mL
COc1ccc(S(=O)(=O)Nc2cc(C(=O)Nc3ccccc3OCc3ccccc3)n(CC(=O)N[C@H]3CCCC[C@@H]3OCc3ccccc3)n2)cc1 |  |  | 0.05–0.1 µM
CSc1nc(C(=O)O)c(O)c(=O)[nH]1 |  |  | <50 µM
Nc1cc(Cn2c(C(=O)O)c(-c3ccc[nH]c3=O)c3cc(C(F)(F)F)ccc32)ccn1 | nucleotide incorporation / binding |  | 0.015 µM
COc1ccc(C2C3=C(CC(C)(C)CC3=O)Nc3ccccc3N2C(C)=O)cc1OCc1ccccc1 |  |  | >15.9 µM
O=c1[nH]c(-c2cccs2)nc(-c2nn[nH]n2)c1O |  |  | >50 µM
COc1cc(C(=O)N2[C@@H](c3nccs3)[C@@H](c3cnccn3)C[C@@]2(Cc2ccccn2)C(=O)O)ccc1C(C)(C)C |  | Genotype 1A | >1 µM
Cc1ccc2c(c1)NC(c1ccc(C(C)C)cc1)C1=C(CC(C)(C)CC1=O)N2 |  |  | 30.9 µM

Again, the opening 6 rows:

smiles,method,strain or isolate,result
C[C@@H](NC(=O)c1ccc2c(c1)nc(-c1ccoc1)n2C1CCCCC1)C(=O)Nc1cccc(-c2ccc(C(=O)O)o2)c1,,,<0.5 µM
CNC(=O)c1c(-c2ccc(F)cc2)oc2cc(N(CCO)S(C)(=O)=O)c(C3CC3)cc12,,1b,0.018 µM
O=C(NC(Cc1c[nH]c2ccc(O)cc12)C(=O)O)c1ccc2c(c1)nc(-c1ccoc1)n2C1CCCCC1,,,0.25 µM
C[C@@H](NC(=O)c1ccc2c(n1)nc(-c1ccoc1)n2C1CCCCC1)C(=O)Nc1ccc(/C=C/C(=O)O)cc1,,,<0.5 µM
CO[C@@H]1[C@H](O)[C@@H](COP(=O)(O)OP(=O)(O)OP(=O)(O)O)O[C@H]1n1ccc(N)nc1=O,,,3.8 µM
CCSc1nc(Nc2ccc(N(CC)CC)cc2)cc(N2CCN(C(=O)c3ccnc(C)c3)CC2)n1,,,3 µg/mL